Structure probing of HIV-1 leader RNA with DMS

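Randomly mutated transcripts starting with one, two or three G (1G, 2G, 3G), capped or uncapped, were folded for 30 min at 37 °C. High salt was 300 mM KCl and 5 mM MgCl2, low salt 40 mM KCl and 0.1 mM MgCl2; monomer and dimer were parted on a native gel. Gel slices were treated with 170 mM dimethyl sulfate for 15 min at 37 °C and read by mutational profiling against an ethanol control.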

RNA: 5' end of the HIV-1 NL4-3 genome, made in vitro. Positions 1-437 read:
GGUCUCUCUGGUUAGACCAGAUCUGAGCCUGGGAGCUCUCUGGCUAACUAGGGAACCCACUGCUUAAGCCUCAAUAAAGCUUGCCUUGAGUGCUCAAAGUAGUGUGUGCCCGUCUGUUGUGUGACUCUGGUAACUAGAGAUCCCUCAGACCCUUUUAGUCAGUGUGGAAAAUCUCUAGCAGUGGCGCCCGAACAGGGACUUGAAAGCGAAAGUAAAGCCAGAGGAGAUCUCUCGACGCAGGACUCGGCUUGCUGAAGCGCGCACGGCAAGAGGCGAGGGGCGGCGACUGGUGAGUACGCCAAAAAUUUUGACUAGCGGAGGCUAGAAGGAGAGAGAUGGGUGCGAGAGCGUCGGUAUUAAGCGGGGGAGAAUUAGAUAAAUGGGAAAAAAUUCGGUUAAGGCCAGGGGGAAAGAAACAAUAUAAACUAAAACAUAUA

Values are winsor-normalised DMS reactivities of A and C; higher means more reactive, usually unpaired.
One numbering serves 1G, 2G and 3G.
A position is written with its base.

| # | position | domain | 3G capped low-salt dimer | 2G uncapped low-salt dimer | 2G uncapped high-salt monomer |
|---|---|---|---|---|---|
| 1 | A21 | TAR | 0.52 | 0.57 | 0.61 |
| 2 | A26 | TAR | 0.08 | 0.15 | 0.11 |
| 3 | C44 | TAR | 0.03 | 0.04 | 0.03 |
| 4 | A46 | TAR | 0.03 | 0.07 | 0.04 |
| 5 | A47 | TAR | 0.11 | 0.18 | 0.12 |
| 6 | A54 | TAR | 0.14 | 0.17 | 0.17 |
| 7 | C57 | TAR | 0.03 | 0.05 | 0.03 |
| 8 | C58 | PolyA | 0.03 | 0.60 | 0.97 |
| 9 | A59 | PolyA | 0.67 | 0.36 | 0.52 |
| 10 | A66 | PolyA | 0.79 | 1.11 | 1.06 |
| 11 | A67 | PolyA | 0.68 | 0.57 | 0.81 |
| 12 | C69 | PolyA | 0.12 | 0.04 | 0.03 |
| 13 | A73 | PolyA | 0.04 | 0.04 | 0.05 |
| 14 | A77 | PolyA | 0.71 | 0.74 | 0.88 |
| 15 | A78 | PolyA | 0.74 | 0.67 | 0.78 |
| 16 | C80 | PolyA | 0.22 | 0.40 | 0.38 |
| 17 | A89 | PolyA | 0.63 | 0.34 | 0.52 |
| 18 | C93 | PolyA | 0.07 | 0.04 | 0.03 |
| 19 | A96 | PolyA | 0.28 | 0.22 | 0.32 |
| 20 | C109 | U5 | 0.07 | 0.21 | 0.16 |
| 21 | C110 | U5 | 0.07 | 0.15 | 0.18 |
| 22 | A124 | none | 1.12 | 0.95 | 1.14 |
| 23 | A133 | PBS | 1.21 | 1.43 | 1.69 |
| 24 | A136 | PBS | 0.10 | 0.10 | 0.10 |
| 25 | C143 | PBS | 0.03 | 0.04 | 0.03 |
| 26 | C151 | PBS | 0.72 | 0.70 | 0.82 |
| 27 | C173 | PBS | 0.03 | 0.04 | 0.03 |
| 28 | C175 | PBS | 0.03 | 0.04 | 0.03 |
| 29 | C185 | PBS | 0.53 | 0.47 | 0.42 |
| 30 | A192 | PBS | 0.82 | 0.75 | 0.79 |
| 31 | A194 | PBS | 1.01 | 0.93 | 1.01 |
| 32 | A205 | PBS | 0.29 | 0.35 | 0.39 |
| 33 | A214 | PBS | 0.27 | 0.29 | 0.29 |
| 34 | A215 | PBS | 0.60 | 0.64 | 0.58 |
| 35 | C218 | antiPAS | 0.04 | 0.06 | 0.03 |
| 36 | A222 | antiPAS | 0.21 | 0.31 | 0.29 |
| 37 | A268 | SL1 | 0.14 | 0.18 | 0.28 |
| 38 | A269 | SL1 | 0.21 | 0.26 | 0.47 |
| 39 | C287 | SL2 | 0.45 | 0.44 | 0.31 |
| 40 | A302 | none | 1.14 | 1.29 | 1.11 |
| 41 | A311 | none | 1.20 | 1.33 | 1.32 |
| 42 | A314 | SL3 | 0.03 | 0.04 | 0.04 |
| 43 | C322 | SL3 | 0.03 | 0.04 | 0.03 |
| 44 | A345 | none | 1.20 | 1.27 | 1.30 |
| 45 | A360 | none | 0.48 | 0.63 | 0.53 |
| 46 | A378 | none | 0.21 | 0.20 | 0.23 |
| 47 | A385 | none | 0.51 | 0.58 | 0.52 |
| 48 | A387 | none | 0.22 | 0.23 | 0.25 |
| 49 | C393 | none | 0.60 | 0.68 | 0.64 |
| 50 | A398 | none | 0.16 | 0.22 | 0.23 |
| 51 | C402 | none | 0.04 | 0.05 | 0.03 |
| 52 | C403 | none | 0.04 | 0.04 | 0.03 |
| 53 | A410 | none | 0.43 | 0.43 | 0.47 |
| 54 | C417 | none | 0.75 | 0.91 | 0.82 |
| 55 | A418 | none | 0.59 | 0.67 | 0.66 |
| 56 | A419 | none | 0.46 | 0.51 | 0.48 |
| 57 | A421 | none | 0.35 | 0.38 | 0.38 |
| 58 | A428 | none | 0.10 | 0.11 | 0.10 |
| 59 | A431 | none | 0.56 | 0.63 | 0.65 |

The first 3 entries again:

{"position": "A21", "domain": "TAR", "3G capped low-salt dimer": 0.52, "2G uncapped low-salt dimer": 0.57, "2G uncapped high-salt monomer": 0.61}
{"position": "A26", "domain": "TAR", "3G capped low-salt dimer": 0.08, "2G uncapped low-salt dimer": 0.15, "2G uncapped high-salt monomer": 0.11}
{"position": "C44", "domain": "TAR", "3G capped low-salt dimer": 0.03, "2G uncapped low-salt dimer": 0.04, "2G uncapped high-salt monomer": 0.03}

Reference: Ye et al. 2022, doi:10.1038/s41594-022-00746-2.